Anti-infective test results gathered from many reports (values: NIAID ChemDB through PubChem).

All rows: host cell toxicity; cells: HepG2 cells; measure: CC50

Conditions beyond the fields shown may differ between rows. CCn is the concentration with n% toxicity to the cells.

SMILES	read by	value
O=C(Nc1ccccc1)c1ccccc1O	tetrazolium	89.8 µM
Clc1ccc2c(NCCCNCc3cnccc3Cl)ccnc2c1	MTT	3.756 µM
O=C(Cc1cccs1)N/N=C/c1sccc1[N+](=O)[O-]	MTT	458.8 µM
CCN(CC)CCN1C(=O)c2ccccc2NC1c1ccc(Cl)cc1Cl	luminescence	>30 µM
O=C(Oc1cc(Cl)ccc1C(=O)Nc1ccc(Cl)c(Cl)c1)c1cnccn1	tetrazolium	3.16 µM
CCN(CC)CCN1C(=O)c2ccccc2NC1c1ccc(N(C)C)cc1	luminescence	>30 µM
COc1ccncc1CNCCCNc1ccnc2cc(Cl)ccc12	MTT	2.906 µM
O=C(Oc1cc(Cl)ccc1C(=O)Nc1cccc(C(F)(F)F)c1)c1cnccn1	tetrazolium	6.28 µM
Fc1ccc(CNCCCNc2ccnc3cc(Cl)ccc23)cc1	MTT	5.433 µM
O=C(Oc1cc(Cl)ccc1C(=O)Nc1cccc(Br)c1)c1cnccn1	tetrazolium	7.04 µM
COc1ccc(CNCCNc2ccnc3cc(Cl)ccc23)cc1	MTT	5.816 µM
CCN(CC)CCN1C(=O)c2ccccc2NC1c1ccccc1F	luminescence	>20 µM
Clc1ccc2c(NCCNCc3cccnc3)ccnc2c1	MTT	95.9 µM
CCN(CC)CCN1C(=O)c2ccccc2NC1c1cc(OC)c(OC)c(OC)c1	luminescence	>30 µM
O=C(Cc1cccs1)N/N=C/c1ccccn1	MTT	17.8 µM

Repeating the final 2 entries:

SMILES | read by | value
CCN(CC)CCN1C(=O)c2ccccc2NC1c1cc(OC)c(OC)c(OC)c1 | luminescence | >30 µM
O=C(Cc1cccs1)N/N=C/c1ccccn1 | MTT | 17.8 µM